Test results as given in publication PMC3630091, “A Mechanistic Paradigm for Broad-Spectrum Antivirals that Target Virus-Cell Fusion” (PLoS Pathogens, 2013).

These compounds were tested on NDV. Details: ratio CC50 / IC50.
Format: cell-based, Newcastle disease virus

Row | Compound | TI (NDV)
1 | CCN1C(=S)O/C(=C\c2ccc(-c3ccccc3OC)o2)C1=S [JL103, (Z) 3-Ethyl-5-[5-(2-methoxyphenyl)-furan-2-ylmethylene]oxazolid-ine-2,4-dithione] | 1,604
2 | CCN1C(=S)O/C(=C\c2ccc(-c3ccc(OC)cc3OC)o2)C1=S [JL109, (Z)-5-((5-(2,4-dimethoxyphenyl)furan-2-yl)methylene)-3-ethyloxazolidine-2,4-dithione] | 2,239
3 | CCN1C(=S)O/C(=C\c2ccc(-c3ccc(N(C)C)cc3)o2)C1=S [JL118, (Z)-5-((5-(4-(dimethylamino)phenyl)furan-2-yl)methylene)-3-ethyloxazolidine-2,4-dithione] | 17,643
4 | CCN1C(=S)O/C(=C\c2ccc(-c3c(OC)cc(OC)cc3OC)o2)C1=S [JL122, (Z)-3-ethyl-5-((5-(2,4,6-trimethoxyphenyl)furan-2-yl)methylene)oxazolidine-2,4-dithione] | 11,422
5 | C=CCN1C(=O)/C(=C/c2ccc(-c3ccccc3)o2)SC1=S [LJ001, (Z)-3-allyl-5-((5-phenylfuran-2-yl)methylene)-2-thioxothiazolidin-4-one] | 66
